Target: wild-type HCV genotype 1b NS5B protein (Hepatitis C virus genotype 1b (isolate Con1) (HCV), UniProt Q9WMX2)
Assay: HCV polymerase enzyme assay, wild-type
Format: biochemical
Details: read-out: Wild-Type IC50, nucleoside triphosphates, recombinant genotype 1b NS5B, tested form: triethylammonium salt
Excerpt: Test compounds in the form of nucleoside triphosphates were examined for inhibitory activity against purified HCV polymerase in a standard assay. Bacterial expression constructs encoding the approximately 65 kDa HCV genotype 1b NS5B protein were used to generate recombinant HCV polymerases (with a deletion of the 21 carboxy terminal amino acids). Both the wild-type genotype 1b protein and protein containing the S282T mutation were expressed and purified for use in the enzymatic activity assay.
The enzymatic activity assay measured the inhibitory effect of increasing concentrations of test compound on the incorporation of α-[^33P]-labeled nucleotide into trichloroacetic acid-precipitable material. Recombinant polymerase and synthetic RNA template were combined in reaction buffer containing ribonucleoside triphosphates, α-[^33P]-labeled nucleotide and eight concentrations of test compound in three-fold dilutions. […]
Reactions were terminated by the addition of ice-cold trichloroacetic acid and sodium pyrophosphate to promote precipitation of newly-synthesized ribonucleic acid. Precipitable material from the reactions was collected by filtration onto 96-well filter plates, washed extensively with water, and quantified by liquid scintillation.
The inhibitory activity of test compounds was determined by fitting results to dose-response curves using XLfit software.

## C[C@@]1(Cl)[C@H](O)[C@@H](COP(=O)(O)OP(=O)(O)OP(=O)(O)O)O[C@H]1n1ccc(N)nc1=O
  IC50: 1 to 10 µM

— patent US10513534B2, “2′-chloro nucleoside analogs for HCV infection” (priority 2012, dated 2019)
